This note sets out measurements from patent publication US20020094524A1, “Compositions and methods for inhibiting HIV infection” (priority 2000, published 2002).

Chains of the proteins cited; added tags and fusions are not shown.
UniProt P25103, whole entry: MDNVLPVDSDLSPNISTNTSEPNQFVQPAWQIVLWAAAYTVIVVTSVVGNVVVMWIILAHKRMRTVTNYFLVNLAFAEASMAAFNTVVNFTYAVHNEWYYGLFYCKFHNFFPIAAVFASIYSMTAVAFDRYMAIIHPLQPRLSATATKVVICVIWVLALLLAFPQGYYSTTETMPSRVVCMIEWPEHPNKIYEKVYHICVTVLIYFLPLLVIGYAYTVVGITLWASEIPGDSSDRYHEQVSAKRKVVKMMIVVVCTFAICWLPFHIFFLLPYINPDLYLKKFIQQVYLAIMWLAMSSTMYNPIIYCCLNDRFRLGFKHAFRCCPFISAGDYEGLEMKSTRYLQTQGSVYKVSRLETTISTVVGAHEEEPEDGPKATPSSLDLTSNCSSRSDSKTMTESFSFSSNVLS

For this assay, the target named is Neurokinin-1 receptor (NK-1R) (human) (UniProt P25103). Description: cell-based or functional assay.

Take “Substance P (SP) (from UniProt P20366 58-68) (peptide)”: the HIV RT activity in MDM, increase at SP 10^-6M worked out at 58%; the HIV RT activity in MDM, increase at SP 10^-8M was 40%; the HIV RT activity in MDM, increase at SP 10^-10M worked out at 14%.
